Here are results for one compound from patent US20170165254A1, “TREATING FLAVIVIRUS INFECTIONS WITH AMODIAQUINE AND DERIVATIVES THEREOF” (GEORGETOWN UNIVERSITY, priority 2014, published 2017).

One test deals with DENV2 replicon. Description: Replicon inhibition assay, BHK-21/DENV2 replicon cells (Rluc). Type of test: cell-based, Dengue Virus 2 (DENV2).
In the next test the test system is WNV replicon. The test can be described thus: Replicon inhibition assay, Vero/WNV replicon cells (Rluc). Type of test: cell-based, West Nile virus (WNV).

With `COc1ccc2nc3cc(Cl)ccc3c(NC(C)CCCN(CCCl)CCCl)c2c1` (stereo not shown), the “% Replicon Inhibition (Means ± SEM) DENV2” value in the test with DENV2 replicon (50 μM in 1% DMSO, BHK-21/DENV2 replicon cells) turned out to be 99.9 ± 0.01%. Further, the EC50 in the test with DENV2 replicon (read-out: DENV replicon EC50, Table 2, unit inferred) was 0.39 µM; with WNV replicon (read-out: WNV replicon EC50, Table 2, unit inferred) it was 0.36 µM. Further, in the test with WNV replicon (50 μM in 1% DMSO, Vero/WNV replicon cells), the “% Replicon Inhibition (Means ± SEM) WNV” value is recorded as 99.8 ± 0.0%.
